# According to patent US20140206628A1 (University of Washington, published 2014):
# B1: HB36.4 (Asp47Ser, Ala60Val, Asn64Lys) (designed binder)
# chain: MSNAMDGQQLNRLLLEWIGAWDPFGLGKDAYDVEAEAVLQAVYETESAFDLAMRIMWIYVFAFKRPIPFPHAQKLARRLLELKQAASSPLPLE
# B2: HB80.3 (Asp12Gly, Ala24Ser, Met26Thr, Asn36Lys, Delta54-95) (designed binder)
# chain: MASTRGSGRPWGFSENLAFELALSFTNKDTPDRWAKVAQYVSGRTPEEVKKHYE
# Columns and labels:
# [1] = target: T1, A/South Carolina/1/1918 (H1N1) hemagglutinin ectodomain, biotinylated (Influenza A virus A/South …)
# [2] = target: T1, A/South Carolina/1/1918 (H1N1) …; remark: listed apart in the source
# [3] = target: T1, A/South Carolina/1/1918 (H1N1) …; remark: listed apart in the source
# [4] = target: T1, A/South Carolina/1/1918 (H1N1) …; remark: listed apart in the source
Binder,apparent Kd (pooled screen) [1],apparent koff (pooled screen) [1],apparent kon (pooled screen) [1],EC50 (read off the curve) [2],apparent Kd (pooled screen) [3],EC50 (read off the curve) [4]
B1,22.3 nM,0.007 s⁻¹,320000 M⁻¹ s⁻¹,~5 nM,4 nM and 22 nM,–
B2,38 nM,0.039 s⁻¹,1e+06 M⁻¹ s⁻¹,–,–,~3 nM

# Where “and” joins values, the source holds several entries; their conditions need not be identical. Equal values may be shown once. Read-outs that look alike come from different tables or passages of the source.
